Experimental data from PMC8347608, “Natural Compounds Isolated from Stachybotrys chartarum Are Potent Inhibitors of Human Protein Kinase CK2” (Molecules, 2021).

The chains behind the UniProt entries cited, without tags or fusion partners.
UniProt P68400, whole entry, looked up: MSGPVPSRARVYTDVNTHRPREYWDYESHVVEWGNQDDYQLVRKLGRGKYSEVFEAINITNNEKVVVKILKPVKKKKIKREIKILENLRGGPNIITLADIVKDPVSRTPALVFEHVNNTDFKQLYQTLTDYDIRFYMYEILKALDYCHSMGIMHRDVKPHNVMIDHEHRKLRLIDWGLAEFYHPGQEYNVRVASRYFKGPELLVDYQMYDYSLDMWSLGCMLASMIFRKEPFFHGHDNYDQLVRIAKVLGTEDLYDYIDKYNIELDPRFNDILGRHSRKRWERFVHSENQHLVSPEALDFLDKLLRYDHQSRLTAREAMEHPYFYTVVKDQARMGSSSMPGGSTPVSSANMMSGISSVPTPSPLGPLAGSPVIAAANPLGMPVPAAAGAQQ

Molecular target: human recombinant CK2 holoenzyme (Homo sapiens, UniProt P68400)
Experiment: CE-based CK2 activity assay (substrate peptide RRRDDDSDDD)
Type: biochemical
Settings: 10 µM compound, relative to DMSO control

SMILES | % Inhibition at 10 µM
CC1=CC2OC3CC4OC(=O)C=CC=CC5(C(C)O)OCCC6(OC6C(=O)OCC2(CC1)C4(C)C31CO1)C5O (centres unmarked) | 12 (n.d.) %
CC1=C[C@H]2O[C@@H]3C[C@@H]4OC(=O)/C=C/C=C/COCC/C([C@@H](O)[C@H](C)O)=C/C(=O)OC[C@@]2(CC1)[C@]4(C)[C@]31CO1 | 10 (n.d.) %
